How the values were obtained:
[1] = biological target: NS5B570-Con1 (Delta-21) (Hepatitis C virus genotype 1b, UniProt Q9WMX2); test: NS5B inhibition assay; type: biochemical, HCV; settings: NS5B570-Con1, 2 hours at 37° C., mean of several independent experiments
[2] = biological target: human rhinovirus 16 polymerase (HRV16pol) (Human rhinovirus 16, UniProt Q82122); test: Picornavirus polymerase inhibition assay; type: biochemical; settings: 2.5 h at 30° C., mean of several independent experiments

Amino acid sequences for entries named in this document (tags omitted). Residues count along the entry.
UniProt Q82122, 1694-2153 limits assumed: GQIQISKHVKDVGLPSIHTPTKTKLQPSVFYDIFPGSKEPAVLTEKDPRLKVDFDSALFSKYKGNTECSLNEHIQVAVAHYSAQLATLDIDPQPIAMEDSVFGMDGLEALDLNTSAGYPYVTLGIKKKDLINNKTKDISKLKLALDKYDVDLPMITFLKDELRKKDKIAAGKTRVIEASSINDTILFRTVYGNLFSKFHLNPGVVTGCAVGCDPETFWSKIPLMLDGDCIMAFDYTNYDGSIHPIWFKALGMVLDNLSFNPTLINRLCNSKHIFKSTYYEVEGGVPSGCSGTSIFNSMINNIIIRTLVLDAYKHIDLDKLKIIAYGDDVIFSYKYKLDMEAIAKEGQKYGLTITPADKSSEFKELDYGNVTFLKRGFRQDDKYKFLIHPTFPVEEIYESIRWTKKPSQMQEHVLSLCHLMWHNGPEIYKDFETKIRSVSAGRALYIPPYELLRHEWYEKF

**Q.** `C[C@]1(O)[C@H](n2ccc(=O)[nH]c2=O)O[C@](F)(COP(O)(=S)OP(=O)(O)OP(=O)(O)O)[C@H]1O` (single isomer, unassigned) [117] was tested. Which IC50 [1] did it give?
**A.** The IC50 was 1 to 10 µM.

**Q.** What about the IC50 [2] of the same molecule?
**A.** Its IC50 is < 100 µM.

**Q.** `[N-]=[N+]=NC[C@]1(COP(=O)(O)OP(=O)(O)OP(=O)(O)O)O[C@@H](n2cnc3c(=O)[nH]c(N)nc32)[C@H](F)[C@@H]1O` was tested. Which IC50 [2] did it give?
**A.** Its IC50 is < 10 µM.

**Q.** For `C[C@]1(O)[C@H](n2ccc(=O)[nH]c2=O)O[C@](F)(COP(O)(=S)OP(=O)(O)OP(=O)(O)O)[C@H]1O` (single isomer, unassigned) [116], which IC50 [1] is on record?
**A.** The IC50 was < 1 µM.

**Q.** What about the IC50 [2] of the same molecule?
**A.** The IC50 was < 10 µM.

**Q.** With `O=c1ccn([C@@H]2O[C@](CF)(COP(=O)(O)OP(=O)(O)OP(=O)(O)O)[C@@H](O)C2(F)F)c(=O)[nH]1` as the molecule, how does the IC50 [1] read?
**A.** Its IC50 is 10 to 100 µM.

**Q.** And the IC50 [2]?
**A.** Its IC50 is < 10 µM.

**Q.** For `[N-]=[N+]=NC[C@]1(COP(=O)(O)OP(=O)(O)OP(=O)(O)O)O[C@@H](n2ccc(=O)[nH]c2=O)[C@H](F)[C@@H]1O`, which IC50 [1] is on record?
**A.** Its IC50 is 10 to 100 µM.

**Q.** And the IC50 [2]?
**A.** The IC50 was < 10 µM.

From patent US10370401B2, “Substituted nucleosides, nucleotides and analogs thereof” (Alios BioPharma, Inc., priority 2013, dated 2019)
